Data: the supplement of paper PMC9931576
Changes are numbered by the printed parent chain. Human monoclonal antibodies against the spike receptor-binding domain (heavy:light variable regions). IC50 against pseudoviruses bearing the spike of naturally observed variants; lower = stronger; >10 µg/ml means not reached at the top dose. No active / inactive call. The stated detection limit is 0.0005 µg/ml; values near or below 0.001 µg/ml lie at the floor of the assay.

B1: BD56-343 (protein)
chain 1: QVELVQSGTEVKMPGSSVRLSCKTSRGTTYAISWVRQAPGQGLEWMGRIIPLLGRKNYAQKFQDRVTITADKSAGAAFMDLGSLTSDDTGMYYCVRNQDISGGISPIPIIWGQGTKVIVSS
chain 2: SFVLTQPPSVSVSPGQTARITCSGDALTKKYVYWHQQKPGQAPVLVISEDNMRPSGIPERFSGSTSGTIVTLTIGGVQSEDEADYYCQSPDTDGTWVFGGGTRLTVL
B2: BD56-345 (protein)
chain 1: QVTLRESGPALVKPTQTLTLTCTFSGFSLNTSGMCVSWIRQPPGKALEWLALIDWDDDKYYSTSLKTRLTISKATSKNQVVLTMTNMDPVDTATYYCARIRGHYYYYGMDVWGQGTTVTVSS
chain 2: SYELTQPPSVSVSPGQTARITCSGDALPNQYAYWYQQRPGQAPVLVIYKDTERPSGIPERFSGSSSGTTVTLTISGVQAEDEADYYCQSADNNGSPVVFGGGTKLTVL
B3: BD56-734 (protein)
chain 1: QVQLQESGPGLVKPSETLSLTCTVSGDSISGYYWSWVRQPPGKGLAWIGYIYNGGSTDYNPSLKSRITMSLDTSKNQFSLKLNSVTAADTAVYFCARGSVDGDAFDIWGQGTMVTVSS
chain 2: DIVMTQSPDSLAVSLGERATINCKSSQSVLYSSNNKNYLAWYQQKPGQPPKLLIYWASTRESGVPDRFSGSGSGTDFTLTISSLQAEDVAVYYCQQYYTTPLTFGPGTKVDIK
B4: BD56-749 (protein)
chain 1: QVQLQESGPGLVKPSETLSLTCTVSGDSISGYYWSWIRQPPGKGLEWIGFIYYSGSTNYNPSLKSRVTILVDTSNNQFSLKLSSVTAADTAVYYCARGQLRGDAFDIWGQGTMVTVSS
chain 2: B3 chain 2 with V91L, T99S, T100I, P106G, D111E
B5: BD56-756 (protein)
chain 1: QVTLRESGPALVKPTQTLTLTCTFSGFSLSTSGMCVSWIRQPPGKALEWLALIGWDDDKYYTTSLKTRLTISKDTSKNQVVLTMTNMDPVDTATYYCARIHGDNSEYAFDIWGQGTMVTVSS
chain 2: SYELTQPPSVSVSPGQTARITCSGDALPIQYSYWYRQKPGQAPVLVIYKDSERPSGIPERFSGSNSGTTVTLTISGVQAEDEADYYCQSADSSGTYPWVFGGGTKLTVL

Target: SARS-CoV-2 Omicron BA.1 spike pseudovirus
Assay: pseudovirus neutralization IC50; higher = weaker neutralization
Description: (§1)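 Single-round VSV luciferase pseudovirus mixed with antibody dilutions for 1 h and put on Huh-7 cells for about a day; IC50 from the dose curve.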

Binder | pseudovirus neutralization IC50 [µg/mL]
B1 | 0.00876
B2 | 0.0234
B3 | 0.00116
B4 | 0.00301
B5 | 0.00676

Target: SARS-CoV-2 Omicron BA.2 spike pseudovirus
Assay: as above
Description: as §1

Binder | pseudovirus neutralization IC50 [µg/mL]
B1 | 0.0051
B2 | 0.0175
B3 | > 10
B4 | > 10
B5 | 0.106

Target: SARS-CoV-2 Omicron BA.2.75 spike pseudovirus
Assay: as above
Description: as §1

Binder | pseudovirus neutralization IC50 [µg/mL]
B1 | 0.0389
B2 | 0.453
B3 | > 10
B4 | > 10
B5 | 0.038

Target: SARS-CoV-2 Omicron BA.2.75.2 spike pseudovirus
Assay: as above
Description: as §1

Binder | pseudovirus neutralization IC50 [µg/mL]
B1 | > 10
B2 | 0.242
B3 | > 10
B4 | > 10
B5 | 0.169

Target: SARS-CoV-2 Omicron BA.5 spike pseudovirus
Assay: as above
Description: as §1

Binder | pseudovirus neutralization IC50 [µg/mL]
B1 | > 10
B2 | 0.0208
B3 | > 10
B4 | > 10
B5 | 0.233

Target: SARS-CoV-2 Omicron BM.1.1.1 spike pseudovirus
Assay: as above
Description: as §1

Binder | pseudovirus neutralization IC50 [µg/mL]
B1 | > 10
B2 | 0.182
B3 | > 10
B4 | > 10
B5 | 0.18

Target: SARS-CoV-2 Omicron BQ.1.1 spike pseudovirus
Assay: as above
Description: as §1

Binder | pseudovirus neutralization IC50 [µg/mL]
B1 | > 10
B2 | 0.0592
B3 | > 10
B4 | > 10
B5 | 2.86

Target: SARS-CoV-2 Omicron BR.2 spike pseudovirus
Assay: as above
Description: as §1

Binder | pseudovirus neutralization IC50 [µg/mL]
B1 | > 10
B2 | 0.13
B3 | > 10
B4 | > 10
B5 | 0.188

Target: SARS-CoV-2 Omicron CA.1 spike pseudovirus
Assay: as above
Description: as §1

Binder | pseudovirus neutralization IC50 [µg/mL]
B1 | > 10
B2 | 0.269
B3 | > 10
B4 | > 10
B5 | 0.173

Target: SARS-CoV-2 Omicron XBB spike pseudovirus
Assay: as above
Description: as §1

Binder | pseudovirus neutralization IC50 [µg/mL]
B1 | > 10
B2 | 5.75
B3 | > 10
B4 | > 10
B5 | > 10

Target: SARS-CoV-2 early D614G spike pseudovirus
Assay: as above
Description: as §1

Binder | pseudovirus neutralization IC50 [µg/mL]
B1 | > 10
B2 | > 10
B3 | > 10
B4 | > 10
B5 | > 10
